Experimental data from EP0791071B1, “ASSAY FOR PROLINE IMINOPEPTIDASE AND OTHER HYDROLYTIC ACTIVITIES” (LITMUS CONCEPTS, INC., priority 1994, dated 1996).

Assay: Naphthalene derivatives reacting with Fast Garnet GBC chromogenic indicator laminae in test devices (Experiment XIV)
Details: naphthalene derivative lamina (from 5 mM solution) and Fast Garnet GBC lamina in test device, water added

Compound	COLOR SCORE
Nc1cc2ccc(S(=O)(=O)O)cc2cc1S(=O)(=O)O [3-amino-2,7-naphthalene disulfonic acid]	0
Nc1ccc2cc(S(=O)(=O)O)cc(S(=O)(=O)O)c2c1 [7-amino-1,3-naphthalene disulfonic acid]	0
Nc1c(S(=O)(=O)O)ccc2ccc(S(=O)(=O)O)cc12 [8-amino-2,7-naphthalene disulfonic acid]	0.5
